# Results published in publication PMC2654453.
# Construct, isoform or probe ends are uncertain for at least one entry. For some assays here: Where cells or extracts were used, other partners may take part. For some assays here: Tags and fusion partners may be left off the protein sequences shown.
# What was measured:
# [1] = target: T1, Tc38 (native, epimastigote whole protein extract) (Trypanosoma cruzi) (UniProt Q9GV75); assay: EMSA supershift; details: 10 mM Tris-HCl (pH not stated), 10 mM KCl, 10 mM MgCl2, 1 mM DTT, 1 mM EDTA, 5 mM spermidine, 0.2 ug poly[dI-dC], 20 uL, 1 ug extract, 1 ng probe, protein in an extract, label: 32P 5' end label (T4 PNK), single-stranded DNA
# T1 sequence (looked up, limits assumed): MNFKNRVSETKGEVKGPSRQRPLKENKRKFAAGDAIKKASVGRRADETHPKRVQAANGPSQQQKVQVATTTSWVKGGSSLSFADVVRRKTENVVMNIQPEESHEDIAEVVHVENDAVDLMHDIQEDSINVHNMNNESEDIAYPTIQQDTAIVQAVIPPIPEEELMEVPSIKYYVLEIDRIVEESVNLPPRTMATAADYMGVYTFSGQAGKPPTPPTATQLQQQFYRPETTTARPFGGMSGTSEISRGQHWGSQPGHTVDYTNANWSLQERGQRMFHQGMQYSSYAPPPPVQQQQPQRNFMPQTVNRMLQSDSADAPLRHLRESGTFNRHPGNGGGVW
# [2] = target: GST-Tc38 (Trypanosoma cruzi) (UniProt Q9GV75); assay: EMSA supershift; details: anti-Tc38 supershift; 10 mM Tris-HCl (pH not stated), 10 mM KCl, 10 mM MgCl2, 1 mM DTT, 1 mM EDTA, 5 mM spermidine, 0.2 ug poly[dI-dC], 20 uL, 1 ug extract, 1 ng probe; recombinant protein; protein details: GST; label: 32P 5' end label (T4 PNK); single-stranded DNA
# [3] = anti-Tc38 supershift, anti-TcPuf6 does not
sequence,measurement,setting,value
TTAAATAGTAGTGTTGTTTAACCTTAAATAGTAGTGTTGTTTAACC [MAX],binding result,[1]; [3],binds
GGGTTAGGGTTAGGGTTAGGGTTAGGGTTAGGGTTA [TEL],binding result,[1]; [3],binds
"TGTGTGTGTGTGTGTGTGTGTGTGTGTGTGTGTGTGTGTG [TG (TG20, poly [dT-dG])]",binding result,[2],binds
same,binding result,"[1]; anti-Tc38 supershifts TG1 and TG2, anti-TcPuf6 does not",binds
GGGGTTGGTGTAGGGGTTGGTGTAGGGGTTGGTGTA [MIN],binding result,[1]; [3],binds
